Patent publication US20240254204A1

How the values were obtained:
[1] = biological target: SARS-CoV-2 Omicron BA.2 (SARS-CoV-2 Omicron BA.2)
[2] = biological target: SARS-CoV-2 Beta (SARS-CoV-2 B.1.351 (Beta))
[3] = biological target: SARS-CoV-2 Alpha (SARS-CoV-2 B.1.1.7 (Alpha))
[4] = biological target: Bat CoV RaTG13 (SC2r-CoV RaTG13 (bat))

With LyCoV-1404 the IC50 [1] was 0.344 µg/mL and the IC50 [2] was 0.079 µg/mL.
With S2X259 the IC50 [3] was 0.106 µg/mL.
Substance CR3022 has an IC50 [4] of 0.437 µg/mL.
